Data taken from PMC3511042 (Beilstein Journal of Organic Chemistry, 2012).
*1 amine or outer side, *2 acyl side, *3 side chain or, on linkers, in order; H or OH if unused. Where a SMILES comes first, the peptide text is derived from it. Bridges are numbered along the chain shown (N, C = ends). [ ]: non-standard residue; d: D form. The star is where a group is joined. ξ: configuration not given here. X3 = CN(C)c1ccc2c(-c3cc(NC(=S)*)ccc3C(=O)[O-])c3ccc(=[N+](C)C)cc-3oc2c1; ξTrp(2-yl) = O=C(C(Cc1c([*:3])[nH]c2ccccc12)N[*:1])[*:2]; X2 = CC1(CC(N[*:1])C(=O)[*:2])SCC(CN[*:3])S1; Hyp = O=C(O)[CH]1C[CH](O)CN1

System: NIH 3T3 mouse fibroblasts
Experiment: Binding and uptake by fluorescence microscopy
Format: cell-based
Details: 10^−5 M, live cells

CC1NC(=O)C(CC2(C)SCC(CNC(=S)Nc3ccc(C(=O)[O-])c(-c4c5ccc(=[N+](C)C)cc-5oc5cc(N(C)C)ccc45)c3)S2)NC(=O)C2Cc3c([nH]c4ccccc34)SCC(NC(=O)C(C(C)O)NC1=O)C(=O)N1CC(O)CC1C(=O)NC(C)C(=O)N2 (stereo not drawn) [compound 3, dithiolanoaminophalloidin TRITC labeled] (cyclo([ξTrp(2-yl)][X2](X3)ATC[Hyp]A); thioether 1-5; configuration not given here)
location of the fluorescent toxin after 1 h: bound on the plasma membrane | location of the fluorescent toxin after 6 h: most of the fluorescent material resides in endocytotic vesicles | location of the fluorescent toxin after 24 h: most of the rhodamine-labeled toxin was still in endosomes
